Measured values from several laboratories, pooled; numbers as filed in NIAID ChemDB.

Common to all: growth or infection tests; species: Mycobacterium tuberculosis

MIC bound comes from a single tested concentration. Blank or dashed fields: not listed here. Percent inhibition refers to the dose given; in toxicity tests it is the harm to the cells. Lines come from different laboratories, so protocols vary. ECn: concentration that inhibits the pathogen or its effect by n%. MIC50, MIC90 and the like: level of inhibition, or share of isolates inhibited.

| structure | strain or isolate | read by | measure | dose | value |
|---|---|---|---|---|---|
| CCCCC(CC)CN1CN(CC(CC)CCCC)CC(C)(NCCNC(C)CCc2ccccc2)C1 |  |  | MIC |  | 25 µM |
| CO[C@@H]1C[C@@H](C[C@H]2CC[C@H](C)[C@H]([C@@H](C)C(=O)O)O2)O[C@]2(O[C@](C)([C@H]3CC[C@@](C)([C@@H]4O[C@@H]([C@H]5O[C@@](O)(CO)[C@H](C)C[C@@H]5C)C[C@@H]4C)O3)C[C@H]2C)[C@@H]1C | ETA-R |  | MIC |  | 6.3 µg/mL |
| COc1ccc(/C=C/C(=O)c2c(O)cccc2OC)cc1 |  |  | EC50 |  | <12.5 µg/mL |
| O=C1N(c2nncs2)CCN1[N+](=O)[O-] | H37Rv | BACTEC | MIC bound |  | ≤12.5 µg/mL |
| FC(F)(F)c1ccc(CNCCNC23CC4CC(CC(C4)C2)C3)cc1 |  |  | MIC |  | >50 µM |
| C[N+]1(C)C[C@H](O)C[C@H]1C(=O)[O-] | H37Rv | BACTEC | inhibition | 12.5 µg/mL | 4% |
| COc1ccc(CCNCCNCCCCc2ccccc2)cc1OC |  |  | MIC |  | 50 µM |
| O=C(O)COc1ccc2ccccc2c1 | H37Rv |  | MIC |  | >100 µg/mL |
| COc1cc2c(-c3c4c5c(cc(OC)c(OC)c5c5cc(OC)c(OC)cc35)CCN4C)c3c4c(cc(OC)c(OC)c4c2cc1OC)CCN3C | H37Rv | BACTEC | MIC bound |  | >12.5 µg/mL |
| Clc1ccc(C(c2ccc(Cl)cc2)C(Cl)(Cl)Cl)cc1 | H37Rv |  | MIC |  | >100 µg/mL |
| O=C(O)c1cccc2c1Oc1c(cccc1C(=O)O)S2 | H37Rv | BACTEC | MIC bound |  | >12.5 µg/mL |
| COc1ccc(/C=C/C(=O)c2ccc([N+](=O)[O-])cc2)cc1 | H37Rv |  | inhibition | 12.5 µg/mL | 62% |
| COc1ccc(CNCCNCCNc2ccccc2)c(OC)c1 |  |  | MIC |  | 50 µM |
| CC(C)CCCC(C)CCNCCSS(=O)(=O)O | H37Rv | resazurin | MIC bound |  | >6.25 µg/mL |
| O=C1CC(c2ccccc2)Oc2ccc(F)cc21 |  |  | inhibition | 12.5 µg/mL | 7% |
| C[C@H](NCCNCC(c1ccccc1)c1ccccc1)[C@H](O)c1ccc(O)c(O)c1 |  |  | MIC |  | 3.13 µM |
| C[C@H]1C[C@H](N)CN1c1cc2c(cc1F)c(=O)c(C(=O)O)cn2-c1ccc(F)cc1F | ATCC 35823 |  | MIC |  | 4 µg/mL |
| CC(C)c1ccc2c(c1)CC[C@H]1[C@](C)(CNCCNC3CCCc4ccccc43)CCC[C@]21C |  |  | MIC |  | 25 µM |
| CO[C@H]1/C=C/O[C@@]2(C)Oc3c(C)c(O)c4c(O)c(c(/C=N/N5CCN(C/C=C/c6ccccc6)CC5)c(O)c4c3C2=O)NC(=O)/C(C)=C\C=C\[C@H](C)[C@H](O)[C@@H](C)[C@@H](O)[C@@H](C)[C@H](OC(C)=O)[C@@H]1C | 3147 (rifampin-sensitive) |  | MIC |  | 0.025 µg/mL |
| COc1cc(-c2ccc(N)c(OC)c2)ccc1N | H37Rv |  | MIC |  | 100 µg/mL |
| C1=C(CCNCCNCC23CC4CC(CC(C4)C2)C3)CCCC1 |  |  | MIC |  | 25 µM |
| CC1S(=O)(=O)OCCCOS1(=O)=O | H37Rv | BACTEC | MIC bound |  | >12.5 µg/mL |
| CCOC(=O)Nc1cc(N)c([N+](=O)[O-])c(NCC(CN(C)c2ccc(NC)cc2)=NC)n1 | H37Rv |  | EC50 |  | >12.5 µg/mL |
| OCC(O)COc1ccccc1 | H37Rv |  | MIC |  | >100 µg/mL |
| Fc1ccc(CCNCCNCC(c2ccccc2)c2ccccc2)cc1 |  |  | MIC |  | 25 µM |
| O=C(O)CCOc1ccccc1 | H37Rv |  | MIC |  | 1000 µg/mL |
| C=CCCn1nc(-c2ccccc2)oc1=O | H37Rv | BACTEC | inhibition | 12.5 µg/mL | 17% |
| OC1(C2(O)CCCCC2)CCCCC1 | H37Rv |  | MIC |  | >100 µg/mL |
| COc1ccc(/C=C/C(=O)c2cc(I)ccc2O)cc1 |  |  | EC50 |  | >12.5 µg/mL |
| CCOC(=O)Nc1cc(NC/C(=N/O)c2ccc(Cl)cc2Cl)c([N+](=O)[O-])c(N)n1 | H37Rv |  | EC50 |  | <12.5 µg/mL |
| Clc1ccc(CCNCCNCC(c2ccccc2)c2ccccc2)c(Cl)c1 |  |  | MIC |  | 6.25 µM |
| Oc1cc(N=Nc2ccccc2)ccc1N=Nc1ccccc1 | H37Rv |  | MIC |  | >100 µg/mL |
| COC(=O)C1(N2CCOCC2)CCC(C(c2ccccc2)C(C)[N+](=O)[O-])C1 | H37Rv | BACTEC | MIC bound |  | >12.5 µg/mL |
| c1ccc(CCCNCCNCCC(c2ccccc2)c2ccccc2)cc1 |  |  | MIC |  | 37.5 µM |
| C[CH2][Ge]([CH2]C)[O][Ge]([CH2]C)[CH2]C.C[CH2][Ge]([CH2]C)[O][Ge]([CH2]C)[CH2]C | H37Rv | BACTEC | MIC |  | 16 µg/mL |
| O=C(O)c1ccc(C(=O)c2ccccc2C(=O)O)cc1 | H37Rv |  | MIC |  | 50 µg/mL |
| CC(C)CC(C)NCCNCc1ccccc1F |  |  | MIC |  | 50 µM |
| CC(C)=CCC1=C(O)[C@@](O)(CC=C(C)C)C(=O)C(C(=O)CC(C)C)=C1O | H37Rv | BACTEC | inhibition | 12.8 µg/mL | 22% |
| CCOC(=O)Nc1cc(NC/C(=C\O)c2ccc(OC)c(OC)c2OC)c([N+](=O)[O-])c(N)n1 | H37Rv |  | inhibition | 12.5 µg/mL | 0% |
| CO[C@H]1/C=C/O[C@@]2(C)Oc3c(C)c(O)c4c(=O)c(c5oc6cc(N7CCN(C(C)C)CC7)cc(=O)c6nc5c4c3=C2O)NC(=O)/C(C)=C\C=C\[C@H](C)[C@H](O)[C@@H](C)[C@@H](O)[C@@H](C)[C@H](OC(C)=O)[C@@H]1C | 3147 (rifampin-sensitive) |  | MIC |  | 0.006 µg/mL |
| NNC(=O)c1ccc(-n2nnc(C(=O)NN)c2C(=O)NN)cc1 | H37Rv | BACTEC | inhibition | 12.5 µg/mL | 0% |
| Nc1ccc(Cl)c2c1C(=O)c1ccccc1C2=O | H37Rv |  | MIC |  | >12.5 µg/mL |
| CC1COc2c(N3CCN(C)CC3)c(F)cc3c(=O)c(C(=O)O)cn1c23 | DRUG-SUS |  | MIC50 |  | 0.5 µg/mL |
| COc1ccc2c(c1)OC(c1ccc(Cl)cc1)CC2=O | H37Rv |  | inhibition | 12.5 µg/mL | 48% |
| CCCCCCCCCCC[n+]1ccccc1 | H37Rv |  | MIC |  | 50 µg/mL |
| COc1ccc(C(C)NNC(=O)c2cc[n+]([B]C#N)cc2)cc1F |  | BACTEC | inhibition | 0.5 µM | 0% |
| Br.CCN(CC)CCCOc1ccccc1 | H37Rv |  | MIC |  | 125 µg/mL |
| CC[C@@H](CO)NCCN[C@@H](CC)CO | MDR4 | broth dilution / resazurin | MIC |  | 16 µg/mL |
| CCC1CCCCN1CCNC/C=C(\C)CCC=C(C)C |  |  | MIC |  | 12.5 µM |
| COc1ccccc1CCNCCNC(C)Cc1ccc(Cl)cc1 |  |  | MIC |  | 50 µM |
| CCOC(=O)Nc1cc2[nH]c(-c3ccccc3F)nc2c(N(CCc2ccccc2)Cc2ccccc2)n1 | H37Rv |  | EC50 |  | <12.5 µg/mL |
| CS1(C)=Nc2c([N+](=O)[O-])cc([N+](=O)[O-])cc2S(=O)(=O)N=1 | H37Rv | BACTEC | MIC |  | ≥128 µg/mL |
| NC(=O)/C=C/C(=O)O | H37Rv |  | MIC |  | >100 µg/mL |
| NCCCCC(C(=O)NC(CO)C(=O)O)N(C(=O)OCc1ccccc1)C(=O)OCc1ccccc1 | H37Rv | BACTEC | MIC |  | ≥12.8 µg/mL |
| CCCCCCCCCCCCS(=O)(=O)CC | H37Rv |  | MIC |  | >100 µg/mL |
| C[C@@H]1CN(c2c(F)c(N)c3c(=O)c(C(=O)O)cn(C4CC4)c3c2F)C[C@H](C)N1 | MDR |  | MIC50 |  | 0.5 µg/mL |
| c1ccc2c(c1)sc1nc3ccncc3nc12 | H37Rv | resazurin | inhibition | 6.25 µg/mL | 33% |
| CC(=O)c1ccc2c(c1)C(=O)c1ccccc1-2 | H37Rv |  | MIC |  | >100 µg/mL |
| CC[C@H]1OC(=O)[C@H](C)[C@@H](O[C@H]2C[C@@](C)(OC)[C@@H](O)[C@H](C)O2)[C@H](C)[C@@H](O[C@@H]2O[C@H](C)C[C@H](N(C)C)[C@H]2O)[C@](C)(O)C[C@@H](C)CN(C)[C@H](C)[C@@H](O)[C@]1(C)O | ATCC 35822 |  | MBC |  | >8 µg/mL |
| COc1ccc(CCNCCNC[C@]2(C)CCC[C@]3(C)c4ccc(C(C)C)cc4CC[C@@H]23)cc1OC |  |  | MIC |  | 6.25 µM |
| CC(=O)N(C)c1cccc2cccc(S(=O)(=O)O)c12 | H37Rv |  | MIC |  | 50 µg/mL |
| CC(C)(CCC(C)(C)N1OC1c1ccccc1)N1OC1c1ccccc1 | H37Rv | BACTEC | inhibition | 12.5 µg/mL | 5% |
| Brc1ccc(/C=C/c2ccc3ccccc3n2)cc1 | H37Rv |  | MIC |  | >100 µg/mL |
| CCCCC(CC)CN1CN(CC(CC)CCCC)CC(C)(NCCNCC(O)c2ccccc2)C1 |  |  | MIC |  | 12.5 µM |
| CCOC(=O)NN(C(=O)OCC)c1c(N(C)NC(C)=O)nc(N)[nH]c1=O | H37Rv | BACTEC | inhibition | 12.5 µg/mL | 3% |
| CCOC(=O)Nc1cc(NC(=O)OCC)c2c(c1C)NC(C)C(c1ccccc1)=N2 | H37Rv |  | EC50 |  | >12.5 µg/mL |
| O=C(/C=C/c1ccccc1)c1cccc2ccccc12 | H37Rv |  | EC50 |  | >12.5 µg/mL |
| CCCCCc1ccc(NC(=O)c2ccc(N)cc2)c(S(=O)(=O)O)c1 | H37Rv |  | MIC |  | >100 µg/mL |
| NCC[C@H](O)C(=O)N[C@@H]1C[C@H](N)[C@@H](O[C@H]2O[C@H](CN)[C@@H](O)[C@H](O)[C@H]2O)[C@H](O)[C@H]1O[C@H]1O[C@H](CO)[C@@H](O)[C@H](N)[C@H]1O | TN1521 (BU) |  | MIC |  | >256 µg/mL |
| Cc1c(N)cc(C(=O)O)cc1[N+](=O)[O-] | H37Rv |  | MIC |  | >100 µg/mL |
| CCOC(=O)Nc1cc2[nH]c(-c3ccc(O)cc3)nc2c(N)n1 | H37Rv |  | EC50 |  | >12.5 µg/mL |
| O=C(NNC(=O)c1ccc2ccccc2c1)c1ccc(Br)cc1 | H37Rv | BACTEC | inhibition | 12.5 µg/mL | 0% |
| O=C(Nc1ccccc1)c1ccccc1O | H37Rv |  | MIC |  | 25 µg/mL |
| Oc1cc2oc3cc(O)c(O)cc3c2cc1O | H37Rv | BACTEC | inhibition | 12.5 µg/mL | 27% |
| COc1cc(OC)c2c(c1)C(=O)c1c(ccc(OC)c1O)C2=O | H37Rv |  | MIC |  | >100 µg/mL |

Repeating the final 10 entries:

structure	strain or isolate	read by	measure	dose	value
CCOC(=O)Nc1cc(NC(=O)OCC)c2c(c1C)NC(C)C(c1ccccc1)=N2	H37Rv		EC50		>12.5 µg/mL
O=C(/C=C/c1ccccc1)c1cccc2ccccc12	H37Rv		EC50		>12.5 µg/mL
CCCCCc1ccc(NC(=O)c2ccc(N)cc2)c(S(=O)(=O)O)c1	H37Rv		MIC		>100 µg/mL
NCC[C@H](O)C(=O)N[C@@H]1C[C@H](N)[C@@H](O[C@H]2O[C@H](CN)[C@@H](O)[C@H](O)[C@H]2O)[C@H](O)[C@H]1O[C@H]1O[C@H](CO)[C@@H](O)[C@H](N)[C@H]1O	TN1521 (BU)		MIC		>256 µg/mL
Cc1c(N)cc(C(=O)O)cc1[N+](=O)[O-]	H37Rv		MIC		>100 µg/mL
CCOC(=O)Nc1cc2[nH]c(-c3ccc(O)cc3)nc2c(N)n1	H37Rv		EC50		>12.5 µg/mL
O=C(NNC(=O)c1ccc2ccccc2c1)c1ccc(Br)cc1	H37Rv	BACTEC	inhibition	12.5 µg/mL	0%
O=C(Nc1ccccc1)c1ccccc1O	H37Rv		MIC		25 µg/mL
Oc1cc2oc3cc(O)c(O)cc3c2cc1O	H37Rv	BACTEC	inhibition	12.5 µg/mL	27%
COc1cc(OC)c2c(c1)C(=O)c1c(ccc(OC)c1O)C2=O	H37Rv		MIC		>100 µg/mL